Taken from: PubChem BioAssay AID1259414 (Drosophila RNAi Screening Center, 2018)
In all, the deposit lists about 24,000 reagents; this is a random part of those with a known target gene and a result. Of all reagents, about 1,210 (5%) got an active call. 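Inactive calls also include excluded dsRNAs with several or no targets, genes unexpressed in JW18, and well A1, regardless of score.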 No sequences are given here.

- Purpose: 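Host factors increasing or decreasing Wolbachia levels in cultured fly cells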 (primary screen)
- Cells: Drosophila JW18 cells infected with Wolbachia
- Knock-down reagent: long dsRNA against Drosophila genes, 0.25 µg dsRNA per well of a 384-well plate
- Duration: 5 days
- Treatment: cells persistently infected with Wolbachia before knock-down; no added drug
- Measurement: 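Automated imaging of bacterial rRNA staining divided by host cell count, reported as plate-normalised robust z-score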
- Scale: Wolbachia per cell robust z: higher = more Wolbachia per host cell than the plate typical
- Rule for the call: 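Active if absolute robust z reaches 1.5 in two or more of three replicates, leaving out multi- or no-target dsRNAs, genes unexpressed in JW18 and A1 wells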

For swaPsi (swallow pseudogene) [SID104201366], the values are Wolbachia per cell robust z, rep 1 = -1.36; Wolbachia per cell robust z, rep 2 = -1.16; Wolbachia per cell robust z, rep 3 = -0.162; inactive.
CG31016 [SID104201132] showed Wolbachia per cell robust z, rep 1 = 0.802; Wolbachia per cell robust z, rep 2 = 0.387; Wolbachia per cell robust z, rep 3 = 0.537; inactive.
CG31016 [SID104205897] scored Wolbachia per cell robust z, rep 1 = 1.09; Wolbachia per cell robust z, rep 2 = 0.984; Wolbachia per cell robust z, rep 3 = 1.4; inactive.
Depletion of CG11563 [SID104194119] gave: Wolbachia per cell robust z, rep 1 = 0.832; Wolbachia per cell robust z, rep 2 = 0.281; Wolbachia per cell robust z, rep 3 = -1.69; inactive.
After knock-down of CG14421 [SID104197710], the screen gave Wolbachia per cell robust z, rep 1 = 0.346; Wolbachia per cell robust z, rep 2 = -2.11; Wolbachia per cell robust z, rep 3 = -1; inactive.
Knock-down of CG14421 [SID104203791] gave: Wolbachia per cell robust z, rep 1 = 0.533; Wolbachia per cell robust z, rep 2 = -1.83; Wolbachia per cell robust z, rep 3 = -0.265; inactive.
Against CG10555 [SID104202559], the entry reads Wolbachia per cell robust z, rep 1 = -0.458; Wolbachia per cell robust z, rep 2 = 1.54; Wolbachia per cell robust z, rep 3 = -1.57; inactive.
Knock-down of CG10555 [SID104206282] resulted in: Wolbachia per cell robust z, rep 1 = 0.117; Wolbachia per cell robust z, rep 2 = 0.343; Wolbachia per cell robust z, rep 3 = 1.17; inactive.
CG8006 [SID104190741] scored Wolbachia per cell robust z, rep 1 = -0.632; Wolbachia per cell robust z, rep 2 = 0.336; Wolbachia per cell robust z, rep 3 = 0.949; inactive.
h-cup (heineken-cup) [SID104195765] scored Wolbachia per cell robust z, rep 1 = -0.495; Wolbachia per cell robust z, rep 2 = -0.176; Wolbachia per cell robust z, rep 3 = 0.69; inactive.
h-cup (heineken-cup) [SID104203356] gave Wolbachia per cell robust z, rep 1 = 0.138; Wolbachia per cell robust z, rep 2 = 2.92; Wolbachia per cell robust z, rep 3 = -0.927; inactive.
Lsd-2 (Lipid storage droplet-2) [SID104199935] scored Wolbachia per cell robust z, rep 1 = -0.372; Wolbachia per cell robust z, rep 2 = 0.166; Wolbachia per cell robust z, rep 3 = 0.455; inactive.
Knock-down of Lsd-2 (Lipid storage droplet-2) [SID104207445] came out at: Wolbachia per cell robust z, rep 1 = -1.85; Wolbachia per cell robust z, rep 2 = -2.53; Wolbachia per cell robust z, rep 3 = -1.19; active.
